Data source: PubChem BioAssay AID1259414 (Drosophila RNAi Screening Center, 2018)
Aim: 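Fly genes that alter Wolbachia amount inside host cells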 (primary screen). System: Drosophila JW18 cells infected with Wolbachia. Knock-down reagent: long dsRNA against Drosophila genes, 0.25 µg dsRNA per well of a 384-well plate. Duration: 5 days. Treatment: cells persistently infected with Wolbachia before knock-down; no added drug. Read-out: 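Imaged fluorescence in situ signal for Wolbachia 23S rRNA per DAPI-counted host cell, given as a robust z-score within each plate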. Direction: Wolbachia per cell robust z: higher = more Wolbachia per host cell than the plate typical. Rule for the call: 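Hit when robust z is 1.5 or more, or -1.5 or less, in at least two of three replicates; excludes dsRNAs with several or no targets, genes not expressed in JW18 and well A1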.
In all, the deposit lists about 24,000 reagents; this is an unselected part of those with a known target gene and a result. Of all reagents, about 1,210 (5%) were called active. 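Inactive calls also include excluded dsRNAs with several or no targets, genes unexpressed in JW18, and well A1, regardless of score.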 Entries without a mark were called inactive. A plus sign joins genes that one reagent is predicted to hit.

| target gene | amplicon | Wolbachia per cell robust z, rep 1 | Wolbachia per cell robust z, rep 2 | Wolbachia per cell robust z, rep 3 |
| --- | --- | --- | --- | --- |
| CG12010 | DRSC08218 | 1.15 | 2.2 | 0.971 |
| CG34357 | DRSC12211 | -0.542 | 0.401 | 0.99 |
| CG34357 | DRSC12334 | 1.76 | -7.58 | -0.546 |
| CG34357 | DRSC23031 | -1.49 | -0.869 | -4.88 |
| CG34357 | DRSC28043 | 0.153 | -0.0572 | 0.369 |
| CG34357 | DRSC28595 | -6.03 | -0.63 | 1.43 |
| CG33181 | DRSC17971 | -0.106 | 0.277 | -0.518 |
| CG33181 | DRSC22376 | -0.739 | 1.12 | 0.851 |
| CG33181 | DRSC29457 | 0.707 | 0.0327 | 1.04 |
| Cog7 (Component of oligomeric golgi complex 7) | DRSC16331 | -2.19 (active) | -2.21 | 0.104 |
| bcd (bicoid) | DRSC12624 | -0.175 | -0.563 | -0.206 |
| bcd (bicoid) | DRSC25303 | -1.07 | 1.06 | -1.37 |
| Acsx1R + Acsx1L | DRSC24222 | 0.318 | -3.33 | -0.599 |
| Jhedup (Juvenile hormone esterase duplication) | DRSC07173 | 0.305 | 0.851 | -2.02 |
| slbo (slow border cells) | DRSC04716 | -1.17 | 0.349 | 0.0728 |
| slbo (slow border cells) | DRSC27813 | 1.36 | 1.17 | 0.958 |
| ms(3)76Cc (male sterile (3) 76Cc) | DRSC11071 | -0.325 | -4.93 | 0.209 |
| ms(3)76Cc (male sterile (3) 76Cc) | DRSC21630 | -1.3 | -1.19 | 0.126 |
| CG7841 | DRSC10922 | 0.112 | -1.56 | -1.19 |
| CG13711 | DRSC08320 | 0.00842 | -0.705 | -1.02 |
| CG13711 | DRSC24101 | -0.495 | -0.793 | -0.647 |
| AGBE (1,4-Alpha-Glucan Branching Enzyme) | DRSC06861 | -0.0345 | 0.337 | -0.289 |
| AGBE (1,4-Alpha-Glucan Branching Enzyme) | DRSC27652 | -0.188 | 0.843 | -0.0506 |
| dome (domeless) | DRSC19583 | 0.918 | 0.746 | 1.94 |
| dome (domeless) | DRSC40773 | -0.761 | -1.31 | -0.888 |
| Wdr62 (WD repeat domain 62) | DRSC00081 | 0.197 | 0.28 | 0.449 |
| Wdr62 (WD repeat domain 62) | DRSC21913 | -2.93 (active) | -2.09 | -0.206 |
| Wdr62 (WD repeat domain 62) | DRSC36508 | 0.299 | -0.955 | 0.0479 |
| Wdr62 (WD repeat domain 62) | DRSC36509 | -0.0583 | -1.23 | -0.142 |
| CG2871 | DRSC18230 | -0.456 | 0.587 | 1.04 |
| CG2871 | DRSC21719 | -0.394 | -1.26 | -1.14 |
| GCC185 (GRIP and coiled-coil domain containing 185 kDa) | DRSC15493 | -0.759 | 0.383 | -0.17 |
| CG11029 | DRSC02119 | 1.16 | 0.0685 | 1.17 |
| fws (four way stop) | DRSC02969 | 0.331 | -6.2 | 0.54 |
| fws (four way stop) | DRSC29678 | -0.0287 | 0.348 | 0.324 |
| stj (straightjacket) | DRSC06124 | 0.142 | 1.14 | 0.871 |
| speck | DRSC04608 | 0.596 | -0.523 | -0.11 |
| speck | DRSC27654 | 0.802 | 0.291 | 1.02 |
| cana + CG33695 | DRSC01163 | -0.976 | -1.21 | -1.21 |
| cana + CG33695 | DRSC23517 | 1.1 | -1.22 | 0.247 |
| mbf1 (multiprotein bridging factor 1) | DRSC11365 | 0.352 | 0.487 | 1.5 |
| Pfas (Phosphoribosylformylglycinamidine synthase) | DRSC03480 | -3.18 | -0.0329 | 1.68 |
| bab1 (bric a brac 1) | DRSC08709 | -5.04 | -0.347 | -0.76 |
| bab1 (bric a brac 1) | DRSC21882 | -3.41 | -1.26 | -0.808 |
| bab1 (bric a brac 1) | DRSC25457 | 2.11 | 0.129 | 0.423 |
| CG32192 | DRSC21760 | -2.08 | -1.53 | -0.00787 |
| CG32192 | DRSC26771 | -3.75 | 0.138 | -0.213 |
| CG10433 | DRSC04068 | -0.0289 | -1.22 | -1.19 |
| CG10433 | DRSC26255 | -0.969 | -0.762 | 0.459 |
| ckn (caskin) | DRSC06149 | -6.8 (active) | -1.83 | -8.99 |
| CG31886 | DRSC03248 | 0.743 | 0.0685 | -0.363 |
| CG31886 | DRSC27420 | 0.732 | -0.467 | -0.0152 |
| Or45a (Odorant receptor 45a) | DRSC07487 | 0.845 | -0.76 | -2.68 |
| Or45a (Odorant receptor 45a) | DRSC27527 | -2.12 | -1.7 | -1.6 |
| CG3108 | DRSC18280 | -2.2 | -1.48 | -3.11 |
| CG31560 | DRSC12136 | -0.688 | -0.0312 | 0.881 |
| Usp14 (Ubiquitin specific protease 14) | DRSC02853 | -6.73 | 0.0142 | 0.584 |
| Usp14 (Ubiquitin specific protease 14) | DRSC26748 | 0.535 | -4 | -0.0951 |
| CG18545 | DRSC15343 | -1.17 | -1.49 | -0.632 |
| PGRP-LE (Peptidoglycan recognition protein LE) | DRSC20137 | 0.185 | -1.98 | 0.0249 |
| CG2955 | DRSC00552 | -2.07 | -0.786 | -0.587 |
| dlp (dally-like) | DRSC10472 | -0.236 | 0.456 | 0.702 |
| dlp (dally-like) | DRSC23803 | 1.17 | 0.996 | -0.416 |
| CG13870 | DRSC06429 | 0.111 | -2.11 | -4.77 |
| CG11353 | DRSC08182 | -8.69 | 0.543 | -0.66 |
| Grip163 | DRSC10538 | 0.597 | -0.129 | -2.85 |
| Grip163 | DRSC26469 | 0.0163 | -1.99 | -0.87 |
| CG12499 | DRSC14521 | 0.036 | -0.003 | 0.00407 |

Reagents listed so far with an active call, once more:
| target gene | amplicon | Wolbachia per cell robust z, rep 1 | Wolbachia per cell robust z, rep 2 | Wolbachia per cell robust z, rep 3 |
| --- | --- | --- | --- | --- |
| Cog7 (Component of oligomeric golgi complex 7) | DRSC16331 | -2.19 (active) | -2.21 | 0.104 |
| Wdr62 (WD repeat domain 62) | DRSC21913 | -2.93 (active) | -2.09 | -0.206 |
| ckn (caskin) | DRSC06149 | -6.8 (active) | -1.83 | -8.99 |
